US20210024903A1, “Compositions and methods relating to a mutant clostridium difficile toxin” (Pfizer, published 2021)

B1: B8-26 mAb (antibody, V domains shown)
VH: QVQLQQPGAELVKPGAPVKLSCKASGYSFTSYWMNWVKQRPGRGLEWIGRIDPSNSEIYYNQKFKDKATLTVDKSSSTAYIQLSSLTSEDSAVYYCASGHYGSIFAYWGQGTTLTVSS
VL: VQITQSPSYLAASPGETITINCRASKSISKYLAWYQEKPGKTNKLLLYSGSTLQSGIPSRFSGSRSGTDFTLIISSLEPEDSAMYYCQQHNEYPLTFGAGTKLELKR
B2: B8-26 (antibody, V domains shown)
VH: B1 VH
VL: B1 VL

Legend:
[1] = molecular target: triple mutant toxin B (SEQ ID NO: 6), genetic, not chemically treated (C. difficile strain 630)
[2] = molecular target: Control, recombinant triple mutant toxin B (SEQ ID NO: 6) (Clostridium difficile 630)

| Binder | binding result [1] | binding result [2] |
| --- | --- | --- |
| B1 | binds | – |
| B2 | – | binds |
